Compound potency records, mixed from different reports. Data source: NIAID ChemDB in PubChem.

Common to all: growth or infection tests; organism: Mycobacterium tuberculosis

MIC bound: limit read from a one-dose screen.

SMILES | strain or isolate | mutations | read-out | method | cell line | tested at | result
N#CC(Nc1ccc(Cl)cc1)c1ccc(OCc2nc3ccccc3[nH]2)cc1 | H37Rv |  | MIC | resazurin |  |  | 4.68 µg/mL
CO[C@H]1CCC[C@H]2C1=C(C(=O)O)N1C(=O)[C@H]([C@@H](C)O)[C@@H]21 | H37Rv |  | MIC | MTT |  |  | 3.2 µM
O=C(NN1C(=O)[C@H](Cl)[C@H]1c1ccc(O)cc1)c1cc(-c2ccc(Cl)cc2)n[nH]1 | H37Rv |  | MIC | broth dilution |  |  | 1.1 µg/mL
CCCc1cnc(C(=O)/C=C/c2ccccc2O)cn1 | H37Rv |  | EC50 |  |  |  | 12.5 µg/mL
CC(C)=CCC1=C(O)c2ccccc2C(=O)C1=O | H37Rv |  | MIC | BACTEC |  |  | 32 µg/mL
CC1(C)S[C@@H]2[C@H](NC(=O)[C@H](C(=O)[O-])c3ccsc3)C(=O)N2[C@H]1C(=O)[O-].[Na+].[Na+] | 190 isolates |  | MIC90 |  |  |  | >128 µg/mL
c1ccc(-c2ccc(CNc3ccccc3-n3ccnc3)cc2)cc1 | 103471 |  | MIC |  |  |  | 8 µg/mL
CC(=O)O[C@H]1CC[C@]2(C)C3=CC[C@]4(C)[C@@H]([C@H](C)CC/C=C(\C)C(=O)O)C[C@H](OC(=O)C(C)C)[C@@]4(C)C3=CC[C@H]2C1(C)C | H37Ra |  | MIC90 | GFP |  |  | 0.781 µg/mL
COc1ccc(-c2oc3cc(OC)c(OC)c(O)c3c(=O)c2O)cc1O | H37Rv |  | MIC | BACTEC |  |  | ≥12.8 µg/mL
COc1ccccc1NC(=O)OCCC[NH+]1CCCCC1 | My 331/88 |  | MIC |  |  |  | 250 µM
C=C/C=C/CC1=C(C)[C@@H](OC(=O)[C@@H]2[C@@H](C=C(C)C)C2(C)C)CC1=O | H37Rv |  | MIC |  |  |  | 64 µg/mL
CCCCCCCCOc1ccc(NC(=O)OCCC[NH+]2CCCCC2)cc1 | My 331/88 |  | MIC |  |  |  | 8 µM
N#CC(Nc1ccccc1F)c1ccc(OCc2nc3ccccc3[nH]2)cc1 | H37Rv |  | inhibition | resazurin |  | 6.25 µg/mL | 92%
CCCCc1cnc(C(=O)/C=C/c2ccc(O)c(OC)c2)cn1 | H37Rv |  | EC50 |  |  |  | >12.5 µg/mL
CCOc1ccc(NC(=O)OCCC[NH+]2CCCCC2)cc1 | My 331/88 |  | MIC |  |  |  | 250 µM
NC(=S)N(Cc1cc2ccccc2nc1Cl)c1ccc([N+](=O)[O-])cc1 | H37Ra |  | MIC |  |  |  | 200 µg/mL
CC(C)(C)c1ccc(C2(Br)C(=O)NC(=O)C2=O)cc1 | H37Rv |  | MIC bound | BACTEC |  |  | >12.5 µg/mL
COc1ccc(OC)c(C2OC(c3ccncc3)=NN2C)c1 | 6 PI |  | MIC |  |  |  | >20 µg/mL
O=C(NN1C(=O)CSC1c1cccc([N+](=O)[O-])c1)c1cc(-c2ccc(Cl)cc2)n[nH]1 |  |  | MIC | broth dilution |  |  | 4 µg/mL
COc1ccc2c(c1)C(CC(=O)NN)CCC2 | H37Rv |  | inhibition | BACTEC |  | 12.5 µg/mL | 17%
O=C(Nc1ccc(N2CCSCC2)cc1)c1ccc(Cl)cc1 | 103471 |  | MIC |  |  |  | >16 µg/mL
CCCCCS(=O)(=O)Nc1ccc2n[nH]c(C(F)(F)F)c2c1 | H37Rv |  | MIC | resazurin |  |  | 12 µM
Cc1ccccc1NC(C#N)c1ccc(OCc2nc3ccccc3[nH]2)cc1 | H37Rv |  | inhibition | resazurin |  | 6.25 µg/mL | 45%
O=c1c2cc3ccccc3n2c(=O)c2cc3ccccc3n12 | H37Rv |  | MIC bound | BACTEC |  |  | >12.5 µg/mL
C=C(C)/C=C/[C@]12C[C@H](C)[C@H]3CC[C@](C)(N)[C@@H](CC[C@H]1C)[C@@H]32 | H37Rv |  | MIC |  |  |  | 6 µg/mL
CO[C@H]1/C=C/O[C@@]2(C)Oc3c(c4c(O)c(/C=N/N5CCN(C)CC5)c(c5nn(C)c(c3C)c45)=NC(=O)/C(C)=C\C=C\[C@H](C)[C@H](O)[C@@H](C)[C@@H](O)[C@@H](C)[C@H](OC(C)=O)[C@@H]1C)C2=O |  |  | MIC90 | resazurin |  |  | >4.8 µM
NNC(=O)c1ccncc1 | H37Ra |  | MIC |  |  |  | 3.12 µg/mL
N#CC(Nc1ccc(F)cc1F)c1ccc(OCc2nc3ccccc3[nH]2)cc1 | H37Rv |  | MIC | resazurin |  |  | 0.05 µg/mL
CO[C@H]1/C=C/O[C@@]2(C)Oc3c(C)c(NCCO)c4c(c3C2=O)C(O)C(/C=N/N2CCN(C)CC2)=C(NC(=O)/C(C)=C\C=C\[C@H](C)[C@H](O)[C@@H](C)[C@@H](O)[C@@H](C)[C@H](OC(C)=O)[C@@H]1C)C4=O |  |  | MIC90 | low oxygen |  |  | >18.5 µM
COc1ccc(Cl)c(-c2cc(OC)c(N=N/C(=N\Nc3ccc([N+](=O)[O-])cc3)c3ccc([N+](=O)[O-])cc3)cc2Cl)c1 | H37Rv |  | MIC bound | BACTEC |  |  | >12.5 µg/mL
CCCc1cnc(C(=O)/C=C/c2ccc(O)c(OC)c2)cn1 | H37Rv |  | EC50 |  |  |  | >12.5 µg/mL
S=C([S-])NCCCCCCNC(=S)[S-].[K+].[K+] | H37Rv |  | inhibition | BACTEC |  | 12.5 µg/mL | 22%
O=C(NN1C(=O)CSC1c1ccc(O)cc1)c1cc(-c2ccc(Cl)cc2)n[nH]1 | H37Rv |  | MIC | broth dilution |  |  | 0.6 µg/mL
O=C(/C=C/c1ccccc1O)c1cnccn1 | H37Rv |  | EC50 |  |  |  | <12.5 µg/mL
CO/N=C(\C(=O)N[C@@H]1C(=O)N2C(C(=O)O)=C(COC(C)=O)CS[C@H]12)c1csc(N)n1 | 190 isolates |  | MIC90 |  |  |  | >128 µg/mL
COc1ccc(-c2cc(=O)c3c(O)cc(O)cc3o2)cc1 | H37Rv |  | MIC bound | BACTEC |  |  | >12.5 µg/mL
COc1ccc(/C=C/C2=NN(C(=N)N)C(c3ccc(OC)cc3)C2)cc1 | H37Rv |  | MIC | resazurin |  |  | 0.89 µM
Cc1cc2n[nH]c(Cl)c2cc1NS(=O)(=O)CCCCF | H37Rv |  | MIC | resazurin |  |  | >100 µM
COc1ccc(C2OC(c3ccncc3)=NN2C)cc1F | 16PI |  | MIC |  |  |  | >20 µg/mL
CCOC(=O)Cc1nc2ccc3c(c2[nH]c1=O)C(=O)c1ccccc1C3=O | H37Rv |  | inhibition | BACTEC |  | 12.5 µg/mL | 61%
CN1N=C(c2ccncc2)OC1c1ccc(C(F)(F)F)cc1 | 6 PI |  | MIC |  |  |  | >20 µg/mL
CCn1cc(C(=O)O)c(=O)c2cc(F)c(-n3cccc3)cc21 | 190 isolates |  | MIC90 |  |  |  | 32 µg/mL
CCC(=O)O[C@H]1CC[C@]2(C)C3=CC[C@]4(C)[C@@H]([C@H](C)CC/C=C(\C)C(=O)O)C[C@H](OC(=O)CC)[C@@]4(C)C3=CC[C@H]2C1(C)C | H37Ra |  | MIC90 | GFP |  |  | 0.781 µg/mL
CC(C)(O/N=C(/C(=O)N[C@@H]1C(=O)N2C(C(=O)[O-])=C(C[n+]3ccccc3)CS[C@H]12)c1csc(N)n1)C(=O)O | 190 isolates |  | MIC90 |  |  |  | >128 µg/mL
CN1N=C(c2ccncc2)OC1c1cccc(Cl)c1 | 6 PI |  | MIC |  |  |  | >20 µg/mL
Cc1ccc(NC(=O)C(=O)Nc2ccc(C)cc2)cc1 |  |  | MIC |  |  |  | 1000 µM
CNC(=S)N(Cc1cc2ccccc2nc1Cl)c1ccc(C)cc1 | H37Ra |  | MIC |  |  |  | 400 µg/mL
CCC(=O)O[C@H]1C[C@H]([C@H](C)CC/C=C(\C)C(=O)O)[C@@]2(C)CC=C3C(=CC[C@H]4C(C)(C)[C@@H](OC(C)=O)CC[C@]34C)[C@]12C | H37Ra |  | MIC90 | GFP |  |  | 0.0977 µg/mL
Clc1ccc(CNc2ccccc2N2CCOCC2)cc1 | 103471 |  | MIC |  |  |  | 8 µg/mL
CO[C@H]1/C=C/O[C@@]2(C)Oc3c(C)c(OS(=O)(=O)c4ccc(C)cc4)c4c(c3C2=O)C(=O)C(/C=N/N2CCN(C)CC2)=C(NC(=O)/C(C)=C\C=C\[C@H](C)[C@H](O)[C@@H](C)[C@@H](O)[C@@H](C)[C@H](OC(C)=O)[C@@H]1C)C4=O |  |  | MIC90 | resazurin |  |  | 0.24 µM
CC1COc2c(N3CCN(C)CC3)c(F)cc3c(=O)c(C(=O)O)cn1c23 | 25 strains |  | MIC90 |  |  |  | 0.78 µg/mL
c1ccc(-c2ccc(CNc3cccc(-n4ccnc4)c3)cc2)cc1 | 103471 |  | MIC |  |  |  | 4 µg/mL
Nc1nc2c(C(=O)N3CCCC3)nnn2c2cccc(Cl)c12 | H37Rv |  | MIC bound | BACTEC |  |  | >12.5 µg/mL
O=C(/C=C/c1ccc(O)cc1)c1cnccn1 | H37Rv |  | EC50 |  |  |  | >12.5 µg/mL
COc1ccc(C2c3c(-c4ccccc4)nn(-c4ccccc4)c3Oc3ncn(N)c(=N)c32)cc1OC | H37Rv |  | inhibition | resazurin |  | 6.25 µg/mL | 31%
NC(=S)N(Cc1cc2ccccc2nc1Cl)c1ccc(F)cc1 | H37Ra |  | MIC |  |  |  | 100 µg/mL
COc1ccc2c(c1)CC(CN1CCC3(CC1)C(=O)N(C)CN3c1ccccc1)O2 | H37Rv |  | inhibition | BACTEC |  | 12.5 µg/mL | 23%
C/C=C/C(=O)O[C@H]1CC[C@]2(C)C3=CC[C@]4(C)[C@@H]([C@H](C)CC/C=C(\C)C(=O)O)C[C@H](OC(C)=O)[C@@]4(C)C3=CC[C@H]2C1(C)C | H37Ra |  | MIC90 | GFP |  |  | >50 µg/mL
CN1N=C(c2ccncc2)OC1c1ccccc1F | 16PI |  | MIC |  |  |  | 20 µg/mL
COc1cccc(NC(=O)OCCC[NH+]2CCCCC2)c1 | My 331/88 |  | MIC |  |  |  | 250 µM
C[C@@H](O)[C@H]1C(=O)N2C(C(=O)O)=C([C@H]3CCCO3)S[C@H]12 | H37Rv |  | MIC | resazurin |  |  | 15.7 µM
COc1ccc(C2OC(c3ccncc3)=NN2C)cc1OC | 6 PI |  | MIC |  |  |  | >20 µg/mL
COC(=O)c1ccc(=O)c2nc3/c(=C\O)c(O)cc(=O)c3[nH]c12 | H37Rv |  | MIC bound | BACTEC |  |  | ≤128 µg/mL
CCCCCCCCCCCCOc1cccc(NC(=O)OCCC[NH+]2CCCCC2)c1 | My 331/88 |  | MIC |  |  |  | 32 µM
Cc1ccc(N2C(=O)CCSC2=S)cc1Cl | H37Rv |  | MIC bound | BACTEC |  |  | ≤12.5 µg/mL
CN[C@@H]1[C@H](O[C@H]2[C@H](O[C@H]3[C@H](O)[C@@H](O)[C@H](N=C(N)N)[C@@H](O)[C@@H]3N=C(N)N)O[C@@H](C)[C@]2(O)C=O)O[C@@H](CO)[C@H](O)[C@H]1O | H37Ra |  | MIC90 | GFP |  |  | 0.625 µg/mL
CC1=C(C)C(=O)C(CC2=C(C)C(=O)C(C)=C(C)C2=O)=C(C)C1=O | TAC-R |  | MIC |  |  |  | 16 µg/mL
CCNc1c(C)c2c3c4c1C(=O)C(=C(/C=N/N1CCN(C)CC1)C4O)NC(=O)/C(C)=C\C=C\[C@H](C)[C@H](O)[C@@H](C)[C@@H](O)[C@@H](C)[C@H](OC(C)=O)[C@H](C)[C@@H](OC)/C=C/O[C@@](C)(O2)C3=O |  |  | MIC90 | low oxygen |  |  | >18.8 µM
Cc1cc2c(cc1S(=O)(=O)O)C1C(C3C2C2(Cl)C(Cl)=C(Cl)C3(Cl)C2(Cl)Cl)C2(Cl)C(Cl)C(Cl)C1(Cl)CCC2(Cl)Cl | H37Rv |  | MIC bound | resazurin |  |  | >6.25 µg/mL
COc1ccc(C2OC(c3ccncc3)=NN2C)c(OC)c1 | 6 PI |  | MIC |  |  |  | >20 µg/mL
CC(C)Oc1ccc(C(=O)NS(=O)(=O)c2ccc(N=Nc3c(O)n(-c4ccccc4)n(-c4ccccc4)c3=O)cc2)cc1 | H37Rv |  | MIC bound | BACTEC |  |  | >12.8 µg/mL
N=C(N)N1N=C(/C=C/c2ccccc2)CC1c1ccccc1 | RGH103 | katG S315T isoniazid resistant | MIC | resazurin |  |  | 0.72 µM
O=C1CC(N2C(=O)C3CCCCC3C2=O)C(=O)N1 | H37Rv |  | inhibition | BACTEC |  | 12.5 µg/mL | -1%
CCCCCCCCCCCCOc1ccccc1NC(=O)OCCC[NH+]1CCCCC1 | My 331/88 |  | MIC |  |  |  | 8 µM
O=c1cc(N2CCNCC2)nc2ccccn12 | H37Rv |  | inhibition | resazurin |  | 6.25 µg/mL | -11%
CO[C@@]1(NC(=O)Cc2cccs2)C(=O)N2C(C(=O)O)=C(COC(N)=O)CS[C@@H]21 | 190 isolates |  | MIC90 |  |  |  | >128 µg/mL
O=[N+]([O-])c1ccc(-c2cnc3nc4[nH]c5ccccc5c4nn23)cc1 | H37Rv |  | inhibition | BACTEC |  | 12.5 µg/mL | 90%
CO[C@H]1CCC[C@H]2C1=C(C(=O)OC(C)OC(=O)OC1CCCCC1)N1C(=O)[C@H]([C@@H](C)O)[C@@H]21 | H37Rv |  | MIC90 | luminescence | THP-1 |  | 5.2 µM

MIC50, MIC90 and the like: level of inhibition, or share of isolates inhibited. Percent inhibition refers to the dose given; in toxicity tests it is the harm to the cells. ECn: concentration that inhibits the pathogen or its effect by n%. Rows are shuffled and stem from different studies. An empty or dashed field is not shown.